Data on one substance can be found in US11299506B2, “Acylnucleoside phosphonates, prodrugs thereof and use thereof as medicament” (UNIVERSITE DE MONTPELLIER, priority 2017, dated 2022).

The subject of the assay is Plasmodium falciparum (strain 3D7). Nature of the assay: In vitro anti-Plasmodium falciparum activity (infected erythrocytes, radioactive precursor incorporation). In kind it is cell-based. As to the method: After 48 h of incubation in the absence (control) or in the presence of the compound to be tested, the radioactive precursor is added, and the reaction is continued for another 18 h, then stopped by freezing at −80° C. The macromolecules, including the radiolabeled nucleic acids, are collected on a filter. The incorporated radioactivity is measured with the scintillation counter after addition of scintillation cocktail. The radioactive background noise is measured based on a suspension of healthy erythrocytes (same conditions as for parasite-containing suspensions). The viability of the parasites is expressed as a (nonspecific derived) percentage of the control. […] The IC50 values thus determined are the result of at least two experiments carried out independently in duplicate. Batches A and B correspond to two different syntheses according to the same procedure and carried out in their totality by two different operators, at a six month interval.

Read-outs that look alike come from different tables or passages of the source.

The IC50 is the concentration needed to halve the response being measured. For the substance “N-9[(2S)-2-hydroxy-4-phosphonobutyl]adenine”, the IC50 (read-out: Activity against P. falciparum (3D7), detection 3H-Ethanolamine, Batch A IC50, 3H-ethanolamine detection, 48 h contact) was above 1000 µM and the IC50 (read-out: Activity against P. falciparum (3D7), detection 3H-Hypoxanthine, Batch A IC50, 3H-hypoxanthine detection, 48 h contact) was above 1000 µM.
